Measured values: paper PMC12609799, “Novel Dual-Coenzyme Specificity and Thermostability of Malate Dehydrogenase Identified in the Cyanobacterium Microcystis aeruginosa PCC7806” (International Journal of Molecular Sciences, 2025)

Experiments:
[1] = tested on: NC(=O)C1=CN([C@@H]2O[C@H](COP(=O)(O)OP(=O)(O)OC[C@H]3O[C@@H](n4cnc5c(N)ncnc54)[C@H](O)[C@@H]3O)[C@@H](O)[C@H]2O)C=CC1; assay: purified protein; settings: oxaloacetate reduction, 100 mM Tris-HCl pH 8.0, 25 °C, apparent, varied: cofactor
[2] = tested on: NC(=O)C1=CN([C@@H]2O[C@H](COP(=O)(O)OP(=O)(O)OC[C@H]3O[C@@H](n4cnc5c(N)ncnc54)[C@H](OP(=O)(O)O)[C@@H]3O)[C@@H](O)[C@H]2O)C=CC1; assay: purified protein; settings: oxaloacetate reduction, 100 mM Tris-HCl pH 8.0, 25 °C, apparent, varied: cofactor

Substance	Km [1]	kcat [2]	kcat/Km [1]
MaMDH (Ma7806MDH) (Microcystis aeruginosa PCC 7806SL; D44G)	26.160 ± 2.17 µM	15.6 s⁻¹	
MaMDH (Ma7806MDH) (Microcystis aeruginosa PCC 7806SL; D44G/G48S/H47R/I45S)		26.5 s⁻¹	153000 M⁻¹ s⁻¹
MaMDH (Ma7806MDH) (Microcystis aeruginosa PCC 7806SL; D44G/G48S/H47R/I45S/L49F/P50Q/V46E)		54.1 s⁻¹	338000 M⁻¹ s⁻¹
MaMDH (Ma7806MDH) (Microcystis aeruginosa PCC 7806SL; D44G/G48S/I45S)		24.3 s⁻¹	125000 M⁻¹ s⁻¹
